Anti-infective test results gathered from many reports (values: NIAID ChemDB through PubChem).

Common to all: whole-cell or culture tests; agent: Vaccinia virus; cell line: PRK; measure: EC50

ECn is the concentration giving n% inhibition of infection, replication or growth. Neighbouring rows are from separate reports.

smiles	value
[N-]=[N+]=N[C@H]1[C@@H](F)[C@H](N2C=CC(N)NC2=O)O[C@@H]1CO	>400 µg/mL
Nc1ncnc2c1ncn2[C@@H]1C[C@H](COP(=O)(O)O)[C@@H](O)[C@H]1O	>400 µg/mL
C=CCc1nc(C)n2c(=O)[nH]cnc12	>100 µg/mL
[N-]=[N+]=Nc1cccc(/C=C/c2cn([C@H]3C[C@H](O)[C@@H](COP(=O)(O)O)O3)c(=O)[nH]c2=O)c1	20 µg/mL
CCc1cn([C@H]2C[C@H](O)[C@@H](CO)O2)c(=O)[nH]c1=O	20 µg/mL
O=c1[nH]c(=O)n([C@H]2C[C@H](O)[C@@H](CO)O2)cc1I	0.07 µg/mL
O=c1[nH]c(=O)n(COCCO)cc1Br	>400 µg/mL
C=CCc1ncn2c(=O)[nH]c(NC(C)=O)nc12	>200 µg/mL
Nc1nc2c(nc(N)n2COCCO)c(=O)[nH]1	>400 µg/mL
Nc1ncnc2c1ncn2[C@@H]1C=C(CF)[C@H](O)[C@H]1O	2 µg/mL
O=c1[nH]c(=O)n([C@H]2C[C@H](O)[C@@H](COP(=O)(O)O)O2)cc1CCc1ccccc1	>400 µg/mL
CNc1nc2c(=O)[nH]c(N)nc2n1COCCO	>400 µg/mL
[N-]=[N+]=N[C@@H]1[C@@H](OP(=O)(O)OC[C@H]2O[C@@H](n3cnc4c(N)ncnc43)[C@H](OP(=O)(O)OCCOCn3cnc4c(=O)[nH]c(N)nc43)[C@H]2N=[N+]=[N-])[C@H](n2cnc3c(N)ncnc32)O[C@@H]1CO	7 µg/mL
Nc1ncnc2c1ncn2[C@@H]1O[C@H](COP(=O)(O)O[C@@H]2[C@H](O)[C@@H](COP(=O)(O)O[C@@H]3[C@H](O)[C@@H](COP(=O)(O)OP(=O)(O)OC[C@@H]4OC(O)[C@H](O)[C@H](O)[C@H]4O)O[C@H]3n3cnc4c(N)ncnc43)O[C@H]2n2cnc3c(N)ncnc32)[C@@H](O)[C@H]1O	100 µg/mL
Nc1nc(=O)n([C@H]2C[C@H](O)[C@@H](CO)O2)cc1/C=C\Cl	>200 µg/mL
CCc1cn([C@H]2C[C@H](O)[C@@H](CO)O2)c(N)nc1=O	>400 µg/mL
Nc1ncnc2c1ncn2[C@@H]1C=C(CO)[C@@H](O)[C@H]1O	0.2 µg/mL
Nc1ncnc2c1ncn2[C@@H]1O[C@H](CO)[C@@H](O)[C@H]1OP(=O)(O)OC[C@H]1O[C@@H](n2cnc3c(N)ncnc32)[C@H](OP(=O)(O)OC[C@H]2O[C@@H](n3cc(F)c(=O)[nH]c3=O)C[C@@H]2O)[C@@H]1O	0.2 µg/mL
C=CCc1nc(C)n2c(=O)[nH]c(=S)[nH]c12	>40 µg/mL
O=c1[nH]c(=O)n(COCCO)cc1[N+](=O)[O-]	>400 µg/mL
CCCc1cn([C@H]2C[C@H](O)[C@@H](COP(=O)(O)O)O2)c(=O)[nH]c1=O	>797 µg/mL
Nc1ncnc2c1ncn2[C@@H]1O[C@H](CO)[C@@H](O)[C@@H]1O	0.3 µg/mL
Nc1ncnc2c1ncn2C1CC(CO)[C@@H](O)[C@H]1O	2 µg/mL
CSCC1=C[C@@H](n2cnc3c(N)ncnc32)[C@H](O)[C@@H]1O	70 µg/mL
COC[C@H]1O[C@@H](n2cnc3c(N)ncnc32)[C@H](O)[C@@H]1O	>100 µg/mL
Nc1nc(=O)c(/C=C/Br)cn1[C@H]1C[C@H](O)[C@@H](CO)O1	>400 µg/mL
O=c1[nH]c(=O)n([C@H]2C[C@H](O)[C@@H](COP(=O)(O)O)O2)cc1I	0.07 µg/mL
CC(=O)OCCOCn1cnc2c(Cl)nc(Cl)nc21	>10 µg/mL
Nc1nc(=O)n([C@H]2C[C@H](O)[C@@H](CO)O2)cc1/C=C/Cl	>200 µg/mL
O=c1[nH]c(=O)n([C@H]2C[C@H](O)[C@@H](COP(=O)([O-])OP(=O)([O-])OC[C@@H]3OC(O)[C@H](O)[C@H](O)[C@H]3O)O2)cc1I	0.4 µg/mL
Cc1cn([C@H]2O[C@H](CO)[C@@H](N=[N+]=[N-])[C@H]2F)c(=O)nc1N	>400 µg/mL

3 of the rows above, restated:

smiles	value
CC(=O)OCCOCn1cnc2c(Cl)nc(Cl)nc21	>10 µg/mL
Nc1nc2c(nc(N)n2COCCO)c(=O)[nH]1	>400 µg/mL
Nc1nc(=O)c(/C=C/Br)cn1[C@H]1C[C@H](O)[C@@H](CO)O1	>400 µg/mL